From publication PMC10492761, “Identification of sodium channel toxins from marine cone snails of the subgenera Textilia and Afonsoconus” (2023) come the findings set out here.

Chains of the proteins cited; added tags and fusions are not shown.
UniProt Q9NY46, whole entry, looked up: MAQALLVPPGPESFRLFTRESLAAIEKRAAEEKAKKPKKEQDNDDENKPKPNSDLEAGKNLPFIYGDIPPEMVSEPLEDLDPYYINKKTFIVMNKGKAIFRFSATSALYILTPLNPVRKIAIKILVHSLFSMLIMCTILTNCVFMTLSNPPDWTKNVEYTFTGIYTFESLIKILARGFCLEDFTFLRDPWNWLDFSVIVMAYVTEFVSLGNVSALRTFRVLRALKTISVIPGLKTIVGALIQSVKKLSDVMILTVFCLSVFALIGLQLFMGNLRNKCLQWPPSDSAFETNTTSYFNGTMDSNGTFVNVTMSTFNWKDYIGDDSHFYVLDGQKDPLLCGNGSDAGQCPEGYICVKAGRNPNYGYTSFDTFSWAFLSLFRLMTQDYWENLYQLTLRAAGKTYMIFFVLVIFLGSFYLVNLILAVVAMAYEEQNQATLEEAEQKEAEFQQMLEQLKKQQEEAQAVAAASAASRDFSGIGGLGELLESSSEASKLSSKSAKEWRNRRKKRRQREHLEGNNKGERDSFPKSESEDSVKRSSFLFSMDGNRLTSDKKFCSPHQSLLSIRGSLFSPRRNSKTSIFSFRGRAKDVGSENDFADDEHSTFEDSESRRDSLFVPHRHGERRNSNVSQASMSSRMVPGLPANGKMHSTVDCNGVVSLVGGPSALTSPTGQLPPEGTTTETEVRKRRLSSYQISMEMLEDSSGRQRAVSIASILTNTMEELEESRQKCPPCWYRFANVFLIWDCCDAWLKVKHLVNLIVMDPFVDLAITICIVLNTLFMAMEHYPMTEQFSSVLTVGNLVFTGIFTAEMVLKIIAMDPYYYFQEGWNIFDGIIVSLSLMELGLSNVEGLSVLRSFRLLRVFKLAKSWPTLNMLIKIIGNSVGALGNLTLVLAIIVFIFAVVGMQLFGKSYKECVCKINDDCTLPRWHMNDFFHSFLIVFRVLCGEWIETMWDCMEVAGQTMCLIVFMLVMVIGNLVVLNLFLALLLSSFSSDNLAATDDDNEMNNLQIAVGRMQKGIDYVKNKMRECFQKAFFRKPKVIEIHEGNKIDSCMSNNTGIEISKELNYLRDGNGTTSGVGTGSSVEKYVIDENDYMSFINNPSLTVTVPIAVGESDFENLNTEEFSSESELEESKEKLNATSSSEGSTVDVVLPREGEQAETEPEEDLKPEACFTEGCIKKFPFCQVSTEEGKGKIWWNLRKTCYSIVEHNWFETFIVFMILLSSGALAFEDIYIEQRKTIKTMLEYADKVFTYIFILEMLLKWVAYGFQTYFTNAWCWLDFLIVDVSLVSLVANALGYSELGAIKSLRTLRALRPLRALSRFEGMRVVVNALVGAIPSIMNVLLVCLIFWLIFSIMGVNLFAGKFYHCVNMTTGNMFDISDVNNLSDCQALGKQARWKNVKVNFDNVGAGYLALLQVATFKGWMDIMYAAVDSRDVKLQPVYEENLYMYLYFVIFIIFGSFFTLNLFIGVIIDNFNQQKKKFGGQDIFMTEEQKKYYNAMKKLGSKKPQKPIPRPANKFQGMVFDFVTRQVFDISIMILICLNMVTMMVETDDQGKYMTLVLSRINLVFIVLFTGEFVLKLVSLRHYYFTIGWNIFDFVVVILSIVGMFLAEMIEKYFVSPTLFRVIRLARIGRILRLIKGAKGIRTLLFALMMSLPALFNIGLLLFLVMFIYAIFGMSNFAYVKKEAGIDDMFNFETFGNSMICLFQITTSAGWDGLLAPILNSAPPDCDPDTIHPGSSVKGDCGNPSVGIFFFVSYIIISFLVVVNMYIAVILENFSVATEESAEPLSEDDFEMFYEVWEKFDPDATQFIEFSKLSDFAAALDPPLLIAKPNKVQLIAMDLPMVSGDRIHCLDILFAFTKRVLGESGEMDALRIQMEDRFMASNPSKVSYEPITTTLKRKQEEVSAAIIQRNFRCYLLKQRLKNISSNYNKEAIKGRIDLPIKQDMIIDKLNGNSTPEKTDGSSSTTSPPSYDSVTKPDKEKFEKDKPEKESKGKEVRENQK
UniProt Q9UQD0, whole entry, looked up: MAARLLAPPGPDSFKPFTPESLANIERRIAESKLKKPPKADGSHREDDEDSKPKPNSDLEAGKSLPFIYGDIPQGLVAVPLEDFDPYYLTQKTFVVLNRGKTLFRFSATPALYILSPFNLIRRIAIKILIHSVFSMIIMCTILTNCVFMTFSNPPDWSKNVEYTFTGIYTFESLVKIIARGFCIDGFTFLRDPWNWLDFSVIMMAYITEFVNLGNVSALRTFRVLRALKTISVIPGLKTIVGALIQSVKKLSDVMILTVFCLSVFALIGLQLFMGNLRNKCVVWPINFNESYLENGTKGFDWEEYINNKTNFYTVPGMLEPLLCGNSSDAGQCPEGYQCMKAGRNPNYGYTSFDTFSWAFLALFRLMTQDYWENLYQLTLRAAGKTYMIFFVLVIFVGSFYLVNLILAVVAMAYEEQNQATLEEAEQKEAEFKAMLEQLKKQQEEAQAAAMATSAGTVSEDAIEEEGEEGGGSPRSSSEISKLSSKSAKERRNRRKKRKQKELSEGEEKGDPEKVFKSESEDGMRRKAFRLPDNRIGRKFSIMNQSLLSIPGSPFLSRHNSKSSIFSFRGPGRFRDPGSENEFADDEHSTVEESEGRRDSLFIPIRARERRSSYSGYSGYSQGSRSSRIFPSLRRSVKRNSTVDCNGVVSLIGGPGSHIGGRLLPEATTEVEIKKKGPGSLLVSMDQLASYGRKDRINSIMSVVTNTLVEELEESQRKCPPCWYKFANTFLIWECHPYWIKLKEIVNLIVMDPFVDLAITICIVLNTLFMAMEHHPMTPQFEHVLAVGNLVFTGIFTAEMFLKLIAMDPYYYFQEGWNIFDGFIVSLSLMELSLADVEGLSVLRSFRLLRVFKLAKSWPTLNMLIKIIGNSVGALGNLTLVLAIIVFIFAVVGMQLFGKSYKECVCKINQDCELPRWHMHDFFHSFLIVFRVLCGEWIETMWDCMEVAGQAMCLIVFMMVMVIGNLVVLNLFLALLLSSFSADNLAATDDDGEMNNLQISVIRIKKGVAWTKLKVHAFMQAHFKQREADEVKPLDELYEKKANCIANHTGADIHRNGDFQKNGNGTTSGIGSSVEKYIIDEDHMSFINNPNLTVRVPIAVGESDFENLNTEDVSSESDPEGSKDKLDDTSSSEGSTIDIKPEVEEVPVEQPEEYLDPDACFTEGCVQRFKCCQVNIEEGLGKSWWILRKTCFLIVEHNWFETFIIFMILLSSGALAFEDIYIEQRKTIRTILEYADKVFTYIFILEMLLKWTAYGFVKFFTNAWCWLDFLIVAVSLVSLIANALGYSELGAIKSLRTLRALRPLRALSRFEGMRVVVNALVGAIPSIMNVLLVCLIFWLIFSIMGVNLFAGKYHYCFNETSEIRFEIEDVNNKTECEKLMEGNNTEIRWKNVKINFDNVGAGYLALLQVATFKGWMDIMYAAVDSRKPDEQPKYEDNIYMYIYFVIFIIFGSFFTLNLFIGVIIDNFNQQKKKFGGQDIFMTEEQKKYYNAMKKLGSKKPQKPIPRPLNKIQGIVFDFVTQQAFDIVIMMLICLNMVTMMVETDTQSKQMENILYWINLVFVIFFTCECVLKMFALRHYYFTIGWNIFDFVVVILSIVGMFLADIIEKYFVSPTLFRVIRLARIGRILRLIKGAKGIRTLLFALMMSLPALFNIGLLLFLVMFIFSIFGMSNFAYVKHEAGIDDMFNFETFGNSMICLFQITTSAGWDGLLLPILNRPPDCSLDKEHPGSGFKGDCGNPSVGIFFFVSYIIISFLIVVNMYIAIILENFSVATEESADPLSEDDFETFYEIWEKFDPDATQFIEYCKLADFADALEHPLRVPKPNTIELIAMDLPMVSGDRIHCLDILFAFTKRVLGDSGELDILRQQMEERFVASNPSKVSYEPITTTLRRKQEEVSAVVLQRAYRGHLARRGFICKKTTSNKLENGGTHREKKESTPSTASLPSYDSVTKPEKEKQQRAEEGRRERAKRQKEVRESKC
UniProt Q15858, whole entry, looked up: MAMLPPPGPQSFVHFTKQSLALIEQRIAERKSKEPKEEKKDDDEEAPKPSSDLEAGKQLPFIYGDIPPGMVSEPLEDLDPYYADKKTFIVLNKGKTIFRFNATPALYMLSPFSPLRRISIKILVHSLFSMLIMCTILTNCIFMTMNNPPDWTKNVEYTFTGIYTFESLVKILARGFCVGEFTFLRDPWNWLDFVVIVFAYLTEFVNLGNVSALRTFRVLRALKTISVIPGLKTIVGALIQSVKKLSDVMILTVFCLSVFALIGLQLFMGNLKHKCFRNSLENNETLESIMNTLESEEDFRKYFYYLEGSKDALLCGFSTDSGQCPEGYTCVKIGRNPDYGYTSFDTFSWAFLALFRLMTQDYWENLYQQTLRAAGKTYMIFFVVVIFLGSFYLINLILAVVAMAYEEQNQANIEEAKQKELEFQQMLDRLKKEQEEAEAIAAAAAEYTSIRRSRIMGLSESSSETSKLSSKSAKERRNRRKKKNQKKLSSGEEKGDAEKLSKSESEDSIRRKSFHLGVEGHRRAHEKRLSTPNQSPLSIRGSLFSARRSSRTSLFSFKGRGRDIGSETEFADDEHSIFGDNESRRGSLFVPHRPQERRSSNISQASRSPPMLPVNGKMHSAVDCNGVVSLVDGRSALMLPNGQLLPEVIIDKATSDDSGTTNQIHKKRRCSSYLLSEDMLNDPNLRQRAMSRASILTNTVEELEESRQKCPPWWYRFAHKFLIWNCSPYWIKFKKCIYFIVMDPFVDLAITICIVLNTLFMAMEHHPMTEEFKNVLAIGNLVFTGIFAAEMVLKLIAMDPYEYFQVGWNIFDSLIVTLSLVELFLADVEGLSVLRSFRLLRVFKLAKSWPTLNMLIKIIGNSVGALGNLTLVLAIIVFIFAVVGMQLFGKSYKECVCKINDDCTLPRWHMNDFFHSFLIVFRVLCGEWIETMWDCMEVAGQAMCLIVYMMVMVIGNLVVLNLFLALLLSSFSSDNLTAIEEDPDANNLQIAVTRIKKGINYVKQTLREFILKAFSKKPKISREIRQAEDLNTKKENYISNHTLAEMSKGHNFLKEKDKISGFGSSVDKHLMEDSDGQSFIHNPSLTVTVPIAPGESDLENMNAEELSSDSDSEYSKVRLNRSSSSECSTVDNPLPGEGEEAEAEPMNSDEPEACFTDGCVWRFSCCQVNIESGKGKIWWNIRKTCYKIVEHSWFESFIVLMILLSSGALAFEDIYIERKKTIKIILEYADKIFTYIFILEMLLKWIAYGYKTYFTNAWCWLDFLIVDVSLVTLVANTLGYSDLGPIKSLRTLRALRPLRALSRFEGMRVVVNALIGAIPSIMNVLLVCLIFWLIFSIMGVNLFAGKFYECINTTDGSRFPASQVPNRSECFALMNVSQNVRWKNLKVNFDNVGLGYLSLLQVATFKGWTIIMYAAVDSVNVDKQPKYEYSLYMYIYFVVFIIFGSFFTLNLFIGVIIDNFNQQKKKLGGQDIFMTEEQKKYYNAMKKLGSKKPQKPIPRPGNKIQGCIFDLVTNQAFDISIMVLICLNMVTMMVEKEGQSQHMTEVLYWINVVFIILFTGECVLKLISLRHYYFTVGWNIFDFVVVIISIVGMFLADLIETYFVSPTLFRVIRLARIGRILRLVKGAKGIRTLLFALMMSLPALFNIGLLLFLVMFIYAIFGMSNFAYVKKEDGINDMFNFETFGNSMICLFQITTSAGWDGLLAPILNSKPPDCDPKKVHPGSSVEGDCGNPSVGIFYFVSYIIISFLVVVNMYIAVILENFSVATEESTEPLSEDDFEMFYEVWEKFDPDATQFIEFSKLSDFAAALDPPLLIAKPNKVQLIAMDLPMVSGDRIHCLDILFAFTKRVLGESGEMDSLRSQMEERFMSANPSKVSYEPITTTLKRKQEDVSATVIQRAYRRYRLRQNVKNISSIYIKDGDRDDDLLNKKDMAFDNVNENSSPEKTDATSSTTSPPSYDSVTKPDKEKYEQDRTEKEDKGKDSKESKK

For one assay, the system named is human NaV1.1–NaV1.8. Kind of assay: Selectivity across human NaV channel subtypes (patch-clamp panel). As to conditions: from IC50 values.
Another assay has as its target human NaV1.3 (Homo sapiens, UniProt Q9NY46). Kind of assay: Automated whole-cell patch-clamp, hNaV1.3. As to conditions: for IC50: read-out: Potency (IC50) at NaV1.3, HEK293 cells, hNaV1.3 α + β1, QPatch16 II whole-cell patch-clamp, holding −90 mV, 50-ms pulse to −20 mV, 0.05 Hz, 5-min incubation per concentration, mean ± SEM. (In general: The patch-clamp technique gives a direct electrical read-out from membranes.)

The next assay addresses human NaV1.6 (Homo sapiens, UniProt Q9UQD0). The experiment in a line: Automated whole-cell patch-clamp, hNaV1.6. As to conditions: read-out: Potency (IC50) at NaV1.6; HEK293 cells, hNaV1.6 α + β1; QPatch16 II whole-cell patch-clamp; holding −90 mV, 50-ms pulse to −20 mV, 0.05 Hz; 5-min incubation per concentration; mean ± SEM.
In another assay the target is human NaV1.7 (Homo sapiens, UniProt Q15858). The experiment in a line: Automated whole-cell patch-clamp, hNaV1.7. As to conditions: tested up to 10 µM.

`C[C@@H]1NC(=O)[C@@H]2CSSC[C@@H](C(N)=O)NC(=O)[C@@H]3CSSC[C@H](NC(=O)[C@@H](N)CSSC[C@H](NC(=O)[C@H](Cc4c[nH]c5ccccc45)NC(=O)[C@H](CCCCN)NC(=O)CNC1=O)C(=O)N[C@@H](CCCCN)C(=O)NCC(=O)N[C@@H](Cc1c[nH]cn1)C(=O)N[C@@H](CO)C(=O)N[C@@H](CCCNC(=N)N)C(=O)N3)C(=O)N[C@@H](CC(N)=O)C(=O)N[C@@H](CCCCN)C(=O)N[C@@H](CC(N)=O)C(=O)NCC(=O)NCC(=O)N2`: the “Selectivity of hNaV1.2 over hNaV1.1 and hNaV1.4” value with human NaV1.1–NaV1.8 is reported as ~ 3.5 fold.

Usually IC50 stands for the point on the concentration scale where inhibition reaches its midpoint. As to `CC(C)[C@H](N)C(=O)NCC(=O)N[C@@H](CCC(=O)O)C(=O)N[C@@H](CCCNC(=N)N)C(=O)N[C@H]1CSSC[C@@H]2NC(=O)[C@H](Cc3c[nH]c4ccccc34)NC(=O)[C@H](CCCNC(=N)N)NC(=O)CNC(=O)[C@@H]3CSSC[C@@H](C(N)=O)NC(=O)[C@H](CSSC[C@H](NC1=O)C(=O)N[C@@H](CCCCN)C(=O)N[C@@H](CC(N)=O)C(=O)NCC(=O)N[C@@H](CCCCN)C(=O)N[C@@H](CCCNC(=N)N)C(=O)NCC(=O)N3)NC(=O)[C@H](CCCNC(=N)N)NC(=O)[C@H](CO)NC(=O)[C@H](Cc1cnc[nH]1)NC(=O)[C@H](CC(=O)O)NC(=O)[C@H](CCCNC(=N)N)NC2=O`, the IC50 at human NaV1.3 came out at 5 nM; at human NaV1.6, 171 nM.

As for `CC(C)[C@H](NC(=O)[C@@H]1CCCN1C(=O)[C@@H](N)CCCNC(=N)N)C(=O)N[C@H]1CSSC[C@@H]2NC(=O)[C@H](Cc3c[nH]c4ccccc34)NC(=O)[C@H](CCCNC(=N)N)NC(=O)[C@H](CO)NC(=O)[C@H](CO)NC(=O)[C@@H]3CSSC[C@@H](C(N)=O)NC(=O)[C@H](CSSC[C@H](NC1=O)C(=O)N[C@@H]([C@@H](C)O)C(=O)NCC(=O)N[C@@H](CCCCN)C(=O)NCC(=O)N[C@@H](CCCCN)C(=O)N[C@@H](CCCNC(=N)N)C(=O)NCC(=O)N3)NC(=O)[C@H](CCCNC(=N)N)NC(=O)[C@H](CO)NC(=O)[C@H](Cc1c[nH]cn1)NC(=O)[C@H](CC(=O)O)NC(=O)[C@H](CCCNC(=N)N)NC2=O`, the IC50 at human NaV1.3 was 163 nM; on human NaV1.6, 1480 nM.

With `CC(C)C[C@@H]1NC(=O)[C@H](CCCNC(=N)N)NC(=O)[C@@H]2CCCN2C(=O)[C@H](CCCNC(=N)N)NC(=O)[C@@H]2CSSC[C@@H]3NC(=O)[C@H](CCCNC(=N)N)NC(=O)[C@H](CO)NC(=O)[C@H](Cc4c[nH]cn4)NC(=O)[C@H](CO)NC(=O)[C@H](CCCCN)NC(=O)[C@H](CSSC[C@H](NC(=O)[C@H](Cc4c[nH]cn4)NC(=O)[C@H](CCC(=O)O)NC(=O)CNC(=O)[C@@H](N)C(C)C)C(=O)N2)NC(=O)[C@H](Cc2c[nH]c4ccccc24)NC(=O)[C@H](CCCNC(=N)N)NC(=O)[C@H](CC(=O)O)NC(=O)[C@H](CSSC[C@@H](C(N)=O)NC3=O)NC(=O)[C@H](CCC(=O)O)NC(=O)[C@H](CCCNC(=N)N)NC(=O)[C@H](CCCCN)NC(=O)CNC(=O)[C@H](CCCNC(=N)N)NC(=O)[C@H](Cc2c[nH]c3ccccc23)NC(=O)[C@H](CC(C)C)NC(=O)[C@@H]2CCCN2C(=O)[C@H](CCCCN)NC(=O)[C@@H]2CCCN2C(=O)[C@H](CCCNC(=N)N)NC1=O`, at human NaV1.3, the “Activity at hNaV1.3, summary in words” value is “potent blockers” and the IC50 was 121 nM. Moreover, on human NaV1.6, the IC50 stood at 503 nM.

In the case of `CSCC[C@@H]1NC(=O)[C@H](CCC(N)=O)NC(=O)CNC(=O)[C@H](CC(N)=O)NC(=O)[C@@H]2CCCN2C(=O)[C@H](CCCCN)NC(=O)[C@@H]2CCCN2C(=O)[C@H](CCCNC(=N)N)NC(=O)[C@@H]2CSSC[C@@H]3NC(=O)[C@H](CCCNC(=N)N)NC(=O)[C@H](CO)NC(=O)[C@H](CC(N)=O)NC(=O)[C@H](CCCCN)NC(=O)[C@H](CCC(=O)O)NC(=O)[C@H](CSSC[C@H](NC(=O)[C@H](Cc4ccc(O)cc4)NC(=O)[C@H](CC(C)C)NC(=O)CNC(=O)[C@@H](N)C(C)C)C(=O)N2)NC(=O)[C@H](Cc2c[nH]c4ccccc24)NC(=O)[C@H](CCCNC(=N)N)NC(=O)[C@H](CC(=O)O)NC(=O)[C@H](CSSC[C@@H](C(N)=O)NC3=O)NC(=O)[C@H](CCSC)NC1=O`, the “Activity at hNaV1.7, in words” value on human NaV1.7 is on record as “no effect”.
